Pooled drug test results. Numbers come from NIAID ChemDB, via PubChem.

Shared fields: tests in culture; agent: Mycobacterium avium intracellulare

A number after MIC or MFC names an inhibition level or a share of isolates. Neighbouring rows are from separate reports. Blank or dashed fields: not listed here. Inhibition is in % at the dose shown (toxicity tests: loss of growth or viability).

compound,strain or isolate,endpoint,dose,value
CC1COc2c(N3CCN(C)CC3)c(F)cc3c(=O)c(C(=O)O)cn1c23,95 isolates,MIC90,,8 µg/mL
C[C@H]1COc2c(N3CCN(C)CC3)c(F)cc3c(=O)c(C(=O)O)cn1c23,20 strains,MIC90,,25 µg/mL
CCC(C)N1CCN(c2cc(=O)c3nc4c(oc3c2)c2c(=O)c3c(O)c(C)c5c(c34)=C(O)[C@@](C)(O/C=C/[C@H](OC)[C@@H](C)[C@@H](OC(C)=O)[C@H](C)[C@H](O)[C@H](C)[C@@H](O)[C@@H](C)/C=C/C=C(/C)C(=O)N2)O5)CC1,31 strains,MIC90,,0.2 µg/mL
CCn1cc(C(=O)O)c(=O)c2cc(F)c(N3CCNCC3)cc21,16 isolates,MIC50,,>100 µg/mL
NC[C@H]1O[C@H](O[C@H]2[C@H](O)[C@@H](O[C@H]3O[C@H](CO)[C@@H](O)[C@H](N)[C@H]3O)[C@H](N)C[C@@H]2N)[C@H](O)[C@@H](O)[C@@H]1O,N-846 (HIV-),MIC,,16 µg/mL
CC[C@H](C)N1CCN(c2cc(=O)c3nc4c(oc3c2)c2c(=O)c3c(O)c(C)c5c(c34)=C(O)[C@@](C)(O/C=C/[C@H](OC)[C@@H](C)[C@@H](OC(C)=O)[C@H](C)[C@H](O)[C@H](C)[C@@H](O)[C@@H](C)/C=C/C=C(/C)C(=O)N2)O5)CC1,31 strains,MIC90,,0.1 µg/mL
C[C@@H]1CN(c2c(F)c(N)c3c(=O)c(C(=O)O)cn(C4CC4)c3c2F)C[C@H](C)N1,20 strains,MIC90,,12.5 µg/mL
CN1CCN(c2c(F)cc3c(=O)c(C(=O)O)cn(CCF)c3c2F)CC1,16 isolates,MIC50,,50 µg/mL
CCc1cc(C(N)=S)ccn1,Serovar 8,inhibition,2.5 µg/mL,64%
CO[C@H]1/C=C/O[C@@]2(C)Oc3c(C)c(O)c4c(O)c(c5c(c4c3C2=O)NC2(CCN(CC(C)C)CC2)N=5)=NC(=O)/C(C)=C\C=C\[C@H](C)[C@H](O)[C@@H](C)[C@@H](O)[C@@H](C)[C@H](OC(C)=O)[C@@H]1C,20 isolates,MIC50,,0.5 µg/mL
CC1COc2c(C3(N)CC3)c(F)cc3c(=O)c(C(=O)O)cn1c23,16 isolates,MIC90,,>100 µg/mL
N[C@@H]1CN(c2c(F)cc3c(=O)c(C(=O)O)cn([C@@H]4C[C@@H]4F)c3c2Cl)CC12CC2,20 strains,MIC90,,6.25 µg/mL
CC1COc2c(N3CCN(C)CC3)c(F)cc3c(=O)c(C(=O)O)cn1c23,16 isolates,MIC50,,50 µg/mL
CC[C@H]1OC(=O)[C@H](C)[C@@H](O[C@H]2C[C@@](C)(OC)[C@@H](O)[C@H](C)O2)[C@H](C)[C@@H](O[C@@H]2O[C@H](C)C[C@H](N(C)C)[C@H]2O)[C@](C)(OC)C[C@@H](C)C(=O)[C@H](C)[C@@H](O)[C@]1(C)O,20 strains,MIC50,,6.25 µg/mL
CO[C@H]1/C=C/O[C@@]2(C)Oc3c(C)c(O)c4c(O)c(c(/C=N/N5CCN(C)CC5)c(O)c4c3C2=O)NC(=O)/C(C)=C\C=C\[C@H](C)[C@H](O)[C@@H](C)[C@@H](O)[C@@H](C)[C@H](OC(C)=O)[C@@H]1C,CIPT 140310054,MIC,,0.05 µg/mL
Cc1c(F)c(N2CCNC(C)C2)cc2c1c(=O)c(C(=O)O)cn2C1CC1,16 isolates,MIC90,,12.5 µg/mL
COc1c(N2CCNC(C)C2)c(F)cc2c(=O)c(C(=O)O)cn(C3CC3)c12,20 strains,MIC50,,6.25 µg/mL

2 of the rows above, restated:

{"compound": "C[C@@H]1CN(c2c(F)c(N)c3c(=O)c(C(=O)O)cn(C4CC4)c3c2F)C[C@H](C)N1", "strain or isolate": "20 strains", "endpoint": "MIC90", "value": "12.5 µg/mL"}
{"compound": "CC[C@H]1OC(=O)[C@H](C)[C@@H](O[C@H]2C[C@@](C)(OC)[C@@H](O)[C@H](C)O2)[C@H](C)[C@@H](O[C@@H]2O[C@H](C)C[C@H](N(C)C)[C@H]2O)[C@](C)(OC)C[C@@H](C)C(=O)[C@H](C)[C@@H](O)[C@]1(C)O", "strain or isolate": "20 strains", "endpoint": "MIC50", "value": "6.25 µg/mL"}